Anti-infective test results gathered from many reports (values: NIAID ChemDB through PubChem).

Shared fields: tests on isolated targets; agent: HIV-1; protein: Reverse transcriptase

Fold resistance has wild type as its base. ICn: concentration for n% inhibition. a–b is a range or a potency band. An empty or dashed field is not shown. Neighbouring rows are from separate reports. Percent inhibition refers to the dose given; in toxicity tests it is the harm to the cells.

structure,strain,mutations,read by,endpoint,tested at,result
FC(F)(F)Cc1nnc2c3ccccc3c(N3CCc4ccccc4C3)nn12,IIIB,,RT activity / fluorescence,IC90,,2.58 µM
CCN1c2ncc(CCOc3ccc(CCC(=O)O)c4c3CCCC4)cc2C(=O)N(C)c2cccnc21,,RT-V106A,nucleotide incorporation / radiometric,fold resistance,,>10
CN1C(=O)c2ccnnc2Oc2ccccc21,,,ELISA,inhibition,33 µM,17%
C=Cc1cc(N(CCC)CCC)nc(S(C)(=O)=O)n1,,,nucleotide incorporation / radiometric,Ki,,>400 µM
CCN1c2ncc(CCOc3ccc(C(=O)O)c4c3CCN(S(=O)(=O)N(C)C)C4)cc2C(=O)N(C)c2cccnc21,,RT-V106A,nucleotide incorporation / radiometric,IC50,,0.1–1 µM
COc1ccc2c(c1)N(C(C)C)C(=O)c1ccnnc1O2,,,ELISA,inhibition,33 µM,27%
CCN1c2ncc(CCOc3ccc(NC(=O)/C=C/C(=O)O)cc3C)cc2C(=O)N(C)c2cccnc21,IIIB,RT-K103N Y181C,nucleotide incorporation / radiometric,fold resistance,,>1
CCOC(=O)CN1C(=O)c2ccnnc2Oc2ccc(OC)cc21,,,ELISA,inhibition,33 µM,25%
CCN1c2ncc(CCOc3ccc(C(=O)O)c4c3CCN(C(=O)OC)C4)cc2C(=O)N(C)c2cccnc21,WT,,nucleotide incorporation / radiometric,IC50,,<0.1 µM
COC(=O)NCCCCNc1nc(Cc2ccccc2)c(C)c(=O)[nH]1,,,,Ki,,23 µM
CCN1c2ncc(CCOc3ccc(C(=O)NCC4(C(=O)O)CCCC4)cc3C)cc2C(=O)N(C)c2cccnc21,IIIB,,nucleotide incorporation / radiometric,IC50,,<0.05 µM
O=P(O)(O)OP(=O)(O)O,,RT-D113E,nucleotide incorporation / radiometric,Ki,,425 µM
Nc1ncnc2c1ncn2[C@H]1CC[C@@H](COP(=O)(O)OP(=O)(O)OP(=O)(O)O)O1,,RT-Q151M,nucleotide incorporation / radiometric,Ki,,1.3 µM
CCCN1C(=O)c2cc(Cl)nnc2N(CC)c2ccccc21,,,,inhibition,33 µM,6%
FC(F)c1nnc2c3ccccc3c(N3CCc4ccccc4C3)nn12,98US_MSC5016,,RT activity / fluorescence,IC90,,1.61 µM
C=Cc1cc(N(C)C)nc(SCc2ccc(OC)cc2)n1,,RT-Y181I,nucleotide incorporation / radiometric,Ki,,>400 µM
O=[N+]([O-])c1ccc2c(c1)CN(c1nn3c(C4CC4)nnc3c3ccccc13)CC2,KER2008,,RT activity / fluorescence,IC90,,14.5 µM
Nc1ccn([C@H]2CC[C@@H](COP(=O)(O)OP(=O)(O)OP(=O)(O)O)O2)c(=O)n1,,RT-A62V V75I F77L F116Y Q151M,nucleotide incorporation / radiometric,Ki,,57 µM
CCN1c2nc(C(F)(F)F)ccc2NC(=O)c2cc(CCOc3cc[n+]([O-])c4ccccc34)cnc21,,RT-V106A,nucleotide incorporation / radiometric,fold resistance,,47
c1ccc2c(c1)CCN(c1nn3c(-c4ccsc4)nnc3c3ccccc13)C2,KER2008,,RT activity / fluorescence,IC90,,29.6 µM
CCN1c2ncc(CCOc3ccc(C(=O)Nc4ccc[n+]([O-])c4)cc3C)cc2C(=O)Nc2c(C)ccnc21,IIIB,RT-K103N Y181C,nucleotide incorporation / radiometric,fold resistance,,1
CCCCCN1C(=O)c2ccnnc2Oc2ccc(C)cc21,,,ELISA,inhibition,33 µM,19%
CCN1c2ncc(CCOc3ccc(-c4ccc(CC(=O)O)cc4)cc3C)cc2C(=O)Nc2c(C)ccnc21,IIIB,RT-K103N Y181C,nucleotide incorporation / radiometric,IC50,,<0.05 µM
O=c1cc(Cc2ccccc2)nc(SCCCCO)[nH]1,,RT-V179D,,Ki,,139 µM
CCc1cc(NCc2nc3c(C)ccc(C)c3o2)c(=O)[nH]c1C,,RT-Y181C,nucleotide incorporation,fold resistance,,735
Cc1cc(C)cc(S(=O)(=O)c2c(C(N)=O)[nH]c3ccc(Cl)c(F)c23)c1,,WT,RT activity / nucleotide incorporation,Ki,,0.006 µM
CCN1c2ncc(CCOc3ccc(-c4ccc(C(=O)O)cc4)cc3C)cc2C(=O)N(C)c2cccnc21,IIIB,RT-K103N Y181C,nucleotide incorporation / radiometric,fold resistance,,1
CCCN1c2ccc(C)cc2N(C)C(=O)c2ccnnc21,,,,inhibition,330 µM,39%
Cc1nnc2ccc(N3CCc4ccccc4C3)nn12,KER2008,,RT activity / fluorescence,IC90,,25.9 µM
Cc1cc(C)cc(S(=O)(=O)c2c(C(=O)NCC(N)=O)[nH]c3ccc(Cl)c(F)c23)c1,,K103N,RT activity / nucleotide incorporation,Ki,,1.42 µM
COc1cc2c(cc1OC)CN(c1nn3c(C(F)F)nnc3c3ccccc13)CC2,98US_MSC5016,,RT activity / fluorescence,IC90,,2.54 µM
CC(C)=CCC/C(C)=C/CC/C(C)=C/CC/C(C)=C/CC/C(C)=C/CC/C(C)=C/Cc1cc(O)ccc1O,,,nucleotide incorporation,IC90,,11 µM
CCN1c2ncc(CCOc3ccc(-c4cccnc4)cc3C)cc2C(=O)N(C)c2cccnc21,IIIB,,nucleotide incorporation / radiometric,IC50,,<0.05 µM
CCCN1C(=O)c2ccnnc2N(CC)c2ccc(C)cc21,,,,inhibition,330 µM,67%
CCN1c2ncc(CCOc3ccc(C(C)C(=O)O)c4ccccc34)cc2C(=O)N(C)c2cccnc21,WT,,nucleotide incorporation / radiometric,IC50,,<0.1 µM
CCN1C(=O)c2ccnnc2N(C2CC2)c2ccc(C)cc21,,,,inhibition,330 µM,50%
Cc1c(Cc2ccccc2)nc(SCCCCO)[nH]c1=O,,RT-Y181I,,Ki,,578 µM
CCCN1C(=O)c2ccnnc2N(C2CC2)c2ccccc21,,,,inhibition,330 µM,90%
CCN1c2ncc(CCOc3ccc(S(=O)(=O)NCC(=O)O)cc3C)cc2C(=O)N(C)c2cccnc21,IIIB,RT-K103N Y181C,nucleotide incorporation / radiometric,fold resistance,,1

Repeating the final 3 entries:

{"structure": "Cc1c(Cc2ccccc2)nc(SCCCCO)[nH]c1=O", "mutations": "RT-Y181I", "endpoint": "Ki", "result": "578 µM"}
{"structure": "CCCN1C(=O)c2ccnnc2N(C2CC2)c2ccccc21", "endpoint": "inhibition", "tested at": "330 µM", "result": "90%"}
{"structure": "CCN1c2ncc(CCOc3ccc(S(=O)(=O)NCC(=O)O)cc3C)cc2C(=O)N(C)c2cccnc21", "strain": "IIIB", "mutations": "RT-K103N Y181C", "read by": "nucleotide incorporation / radiometric", "endpoint": "fold resistance", "result": "1"}